Measured values as given in PMC6465249, “Light chain modulates heavy chain conformation to change protection profile of monoclonal antibodies against influenza A viruses” (2019).

Columns and labels:
[1] = biological target: H3-AC/68 HA (hemagglutinin of H3N2 A/Aichi/2/1968) (influenza A virus H3N2 A/Aichi/2/1968); test: crystal structure
[2] = biological target: H4-CZ/56 HA (hemagglutinin of H4N6 A/duck/Czech/1956) (influenza A virus H4N6 A/duck/Czech/1956); test: crystal structure

Substance	stoichiometry N [1]	stoichiometry N [2]
H3-AC/68 HA (hemagglutinin of H3N2 A/Aichi/2/1968) (natural protein)	3	–
H4-CZ/56 HA (hemagglutinin of H4N6 A/duck/Czech/1956) (natural protein)	–	3
